A mixed list of measured activities; the numbers were collected in NIAID ChemDB.

Shared fields: growth or infection tests; organism: Mycobacterium kansasii; endpoint: MIC

Blank or dashed fields: not listed here.

compound	setting	strain or isolate	method	result
Fc1ccc(-n2c(=S)oc3ccc(Br)cc3c2=S)cc1	21 d	My 235/80	-	16 µM
Cc1ccc(CS/C(N)=N/N=C/c2ccccc2)cc1	14 d	ATCC 12478	broth dilution	62.5 µM
Cc1ccc2oc(=S)n(-c3ccc(Cl)c(Cl)c3)c(=S)c2c1	21 d	My 235/80	-	8 µM
COc1cccc(CS/C(N)=N/N=C/c2cc(Cl)ccc2O)c1	14 d	6509/96	broth dilution	62.5 µM
O=C(NC1CCCCC1)N(C(=O)c1cnccn1)C1CCCCC1	21 d	235/80	-	>500 µM
C[C@H](NC(=O)OCc1ccccc1)c1cnc(-c2ccc([N+](=O)[O-])cc2)[nH]1	7 d	My 235/80	-	>125 µM
O=C(Oc1ccc(Cl)cc1C(=O)Nc1cccc(F)c1)c1cnccn1	21 d	6509/96	-	8 µM
Cc1ccc2oc(=O)n(-c3ccccc3)c(=S)c2c1	21 d	6509/96	-	4 µM
O=C(OCc1ccccc1)N1CCC[C@H]1c1cnc(-c2ccc([N+](=O)[O-])cc2)[nH]1	7 d	My 6509/96	-	32 µM
Fc1cccc(-n2c(=S)oc3ccc(Cl)cc3c2=S)c1	14 d	6509/96	-	8 µM
O=C(Oc1cc(Cl)ccc1C(=O)Nc1ccc(C(F)(F)F)cc1)c1cnccn1	14 d	6509/96	-	1 µM
CC[C@@H](C)[C@H](NC(=O)OCc1ccccc1)c1cnc(-c2ccc([N+](=O)[O-])cc2)[nH]1	14 d	My 6509/96	-	16 µM
O=C(Nc1ccc(F)cc1)c1ccc(Cl)cc1OS(=O)(=O)c1ccccc1	21 d	235/80	-	32 µM
N/C(=N\N=C\c1cc(Br)ccc1O)SCc1ccc(F)cc1	14 d	ATCC 12478	broth dilution	32 µM
O=C(OCc1ccccc1)N1CCC[C@H]1c1cnc(-c2ccccc2)[nH]1	7 d	My 6509/96	-	62.5 µM
O=C(Nc1ccc(Cl)cc1)c1ccc(Cl)cc1OS(=O)(=O)c1ccccc1	14 d	235/80	-	16 µM
Cc1ccc2oc(=O)n(-c3cccc(Cl)c3)c(=S)c2c1	21 d	My 235/80	-	4 µM
O=C(Oc1cc(Cl)ccc1C(=O)Nc1cccc(Cl)c1)c1cnccn1	21 d	6509/96	-	8 µM
O=C(Nc1ccc(C(F)(F)F)cc1)c1ccc(Cl)cc1OS(=O)(=O)c1ccccc1	14 d	235/80	-	4 µM
O=C(Oc1ccc(Br)cc1C(=O)Nc1ccc(C(F)(F)F)cc1)c1cnccn1	21 d	235/80	-	4 µM
O=C(Nc1cccc(Cl)c1)c1cc(Cl)ccc1OS(=O)(=O)c1ccccc1	14 d	6509/96	-	16 µM
CC[C@@H](C)[C@H](NC(=O)OCc1ccccc1)c1cnc(-c2ccccc2)[nH]1	14 d	My 235/80	-	62.5 µM
N/C(=N\N=C\c1cc(Br)ccc1O)SCc1cccc(Cl)c1	14 d	ATCC 12478	broth dilution	32 µM
O=c1oc2ccc(Cl)cc2c(=S)n1-c1cccc(F)c1	21 d	My 235/80	-	16 µM
O=C(Nc1ccc(Br)cc1)c1ccc(Br)cc1OS(=O)(=O)c1ccccc1	14 d	235/80	-	16 µM
S=c1oc2ccc(Br)cc2c(=S)n1-c1ccc(Br)cc1	14 d	My 235/80	-	4 µM
CC(C)[C@H](NC(=O)OCc1ccccc1)c1cnc(-c2ccc([N+](=O)[O-])cc2)[nH]1	7 d	My 6509/96	-	16 µM

A second listing of 2 rows from above:

compound	setting	strain or isolate	method	result
O=c1oc2ccc(Cl)cc2c(=S)n1-c1cccc(F)c1	21 d	My 235/80	-	16 µM
CC[C@@H](C)[C@H](NC(=O)OCc1ccccc1)c1cnc(-c2ccc([N+](=O)[O-])cc2)[nH]1	14 d	My 6509/96	-	16 µM

Neighbouring rows are from separate reports.